Results deposited as PubChem BioAssay AID504761 (Drosophila RNAi Screening Center, 2011).

- Test: 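Fly genes whose silencing reduces dengue virus type 2 infection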 (primary screen)
- Cells: D.Mel-2 cells from Drosophila
- Knock-down reagent: long dsRNA against Drosophila genes
- Conditions: infection with dengue virus type 2; dose and infection time not stated
- Measured: 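Per well on two replicate plates, imaging gave the percent of cells positive for viral envelope protein, ranked by infection, and a nuclear count of cells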
- Reading the numbers: infection score: higher = more virus-infected cells; cell count: higher = more cells in the well
- Rule for the call: 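Low infection ranks in the two replicates (chance level up to 0.065) followed by a retest with a 1.5-fold or larger significant decrease, p below 0.05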
- Meaning of the calls: active = confirmed: knock-down lowers infection; inactive = not picked or not confirmed
In all, the deposit lists about 22,000 reagents; below is a random part of those with a known target gene and a result. Of all reagents, 116 (0.52%) are marked active. 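Calls depend on retest data that are not deposited; infection was ranked per plate without normalising between plates; the unit of the infection score is not given.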 The raw values are shown without normalisation. Not all columns of the deposit are shown. Reagent sequences are not shown. The record does not give: the amount of reagent, the time to read-out.

The opening 2 entries as a preview:
no.	target	dsRNA	infection score, replicate 1	infection score, replicate 2	cell count, replicate 1	activity call
1	CG30062 (GeneID 246428)	DRSC21737	9.15	6.75	6189	inactive
2	CG31126 (GeneID 326121)	DRSC14623	8.29	11.6	5684	inactive

The listing, from the start:
no.	target	dsRNA	infection score, replicate 1	infection score, replicate 2	cell count, replicate 1	activity call
1	CG30062 (GeneID 246428)	DRSC21737	9.15	6.75	6189	inactive
2	CG31126 (GeneID 326121)	DRSC14623	8.29	11.6	5684	inactive
3	GlnRS (GeneID 45786)	DRSC14140	3.56	11.3	5022	inactive
4	RASSF8 (GeneID 43096)	DRSC15707	2.66	4.41	6314	inactive
5	RASSF8 (GeneID 43096)	DRSC26449	1.14	4.22	6578	inactive
6	CG5828 (GeneID 33742)	DRSC02900	3.28	11.1	6218	inactive
7	CG5828 (GeneID 33742)	DRSC24456	5.36	1.88	6385	inactive
8	CG15040 (GeneID 32848)	DRSC19616	27.4	10.4	4258	inactive
9	CG15040 (GeneID 32848)	DRSC21482	2.53	4.56	6633	inactive
10	CG15040 (GeneID 32848)	DRSC29466		14.4	357	inactive
11	CG18659 (GeneID 35929)	DRSC06784	3.92	5.54	6781	inactive
12	GramD1B (GeneID 33552)	DRSC00426	18.5	4.4	4483	inactive
13	GramD1B (GeneID 33552)	DRSC00591	4	17.5	6177	inactive
14	GramD1B (GeneID 33552)	DRSC23885	3.38	5.45	6007	inactive
15	GramD1B (GeneID 33552)	DRSC28705	15.2	4.87	3296	inactive
16	Mco1 (GeneID 34258)	DRSC02720			528	inactive
17	CG14983 (GeneID 38466)	DRSC08441	1.38	8.02	6818	inactive
18	CG14983 (GeneID 38466)	DRSC26428	3.41	2.9	6387	inactive
19	IntS11 (GeneID 43506)	DRSC15407	4.95	2.87	5539	inactive
20	IntS11 (GeneID 43506)	DRSC26912	2.78	7.82	5973	inactive
21	Jhbp3 (GeneID 40611)	DRSC12247	4.26	10.7	6758	inactive
22	Lapsyn (GeneID 37418)	DRSC04249	13.7	3.83	6154	inactive
23	GC (GeneID 38194)	DRSC08396	1.41	0.9	6110	inactive
24	GC (GeneID 38194)	DRSC27222	2.17	4.96	6741	inactive
25	Ire1 (GeneID 42358)	DRSC15606	12.9	4.9	6324	inactive
26	Ca-alpha1D (GeneID 34950)	DRSC03284	17.1	8.88	6518	inactive
27	Gr98a (GeneID 43305)	DRSC14719	1.04	1.36	6364	inactive
28	Ssadh (GeneID 43092)	DRSC15621	5.85	4.67	6305	inactive
29	Ssadh (GeneID 43092)	DRSC27782	9.6	37	6740	inactive
30	Sclp (GeneID 32156)	DRSC19851	1.5	10	6620	inactive
31	CG15482 (GeneID 34717)	DRSC02492	2.56	2.52	6379	inactive
32	CG12842 (retired record) (GeneID 35619)	DRSC06188	18.3	15.3	3557	inactive
33	CG12842 (retired record) (GeneID 35619)	DRSC24909	9.13	8.71	6723	inactive
34	Efhc1.1 (GeneID 32528)	DRSC20135	6.39	1.08	6075	inactive
35	Nepl4 (GeneID 33889)	DRSC03239	5.42	12.9	5978	inactive
36	Sans (GeneID 36427)	DRSC06357	17.1	12.9	5585	inactive
37	Sans (GeneID 36427)	DRSC27928	35.7	19	4853	inactive
38	CG8736 (GeneID 35841)	DRSC07255	6.42	6.97	6494	inactive
39	CG8736 (GeneID 35841)	DRSC27360	1.86	3.01	6302	inactive
